Measured values published in US20070032460A1, “Use of voacamine and related compounds in the treatment of malaria” (priority 2005, published 2007).
Read-outs that look alike come from different tables or passages of the source.

Assays:
[1] = tested on: CQ-resistant (W2) strain of P. falciparum; assay: microbe, parasite or virus in culture; details: Plasmodium falciparum
[2] = tested on: CQ-resistant (W2) strain of P. falciparum
[3] = W2, read-out: IC50 of each drug in combination VOA (1.0 μM) CQ (0.3 μM)
[4] = W2, read-out: IC50 of each drug in combination VOA (2.0 μM) CQ (0.2 μM)

Molecule: CCN(CC)CCCC(C)Nc1ccnc2cc(Cl)ccc12 (stereo not shown) [CQ, chloroquine, reference compound]
- IC50 [1, 3]: 25.6 ± 3.2 nM
- IC50 [1, 4]: 9.1 ± 2.1 nM

Molecule: CC=C1CN(C)C2Cc3c([nH]c4ccccc34)C(c3cc4[nH]c5c(c4cc3OC)CCN3CC4CC(CC)C3C5(C(=O)OC)C4)CC1C2C(=O)OC (stereo not shown) [VOA, Voacamine]
- IC50 ([2]; read-out: IC50, single drug): 305 ± 29.2 nM
- IC50 ([1]; W2, read-out: IC50 (10^−7 M) R): 290 nM
- IC50 ([1]; W2, read-out: IC50, single drug): 290 ± 24.7 nM
- IC50 [1, 3]: 79.5 ± 13.7 nM
- IC50 ([1]; W2, read-out: IC50 of each drug in combination VOA (1.0 μM) QHS (0.3 μM)): 78.9 ± 14.5 nM
- IC50 [1, 4]: 126 ± 16.1 nM
- IC50 ([1]; W2, read-out: IC50 of each drug in combination VOA (2.0 μM) QHS (0.2 μM)): 98.1 ± 17.3 nM
- IC50 ([1]; W2, read-out: IC50 of each drug in combination VOA (3.0 μM) CQ (0.1 μM)): 255 ± 39.6 nM
- IC50 ([1]; W2, read-out: IC50 of each drug in combination VOA (3.0 μM) QHS (0.1 μM)): 297 ± 54.1 nM

Molecule: C[C@@H]1CC[C@H]2[C@@H](C)C(=O)O[C@@H]3O[C@@]4(C)CC[C@@H]1[C@]32OO4 [QHS, qinghaosu, reference compound]
- IC50 ([2]; read-out: IC50, single drug): 57.6 ± 4.5 nM
- IC50 ([2]; read-out: IC50 of each drug in combination VOA (1.0 μM) QHS (0.3 μM)): 22.8 ± 3.1 nM
- IC50 ([2]; read-out: IC50 of each drug in combination VOA (2.0 μM) QHS (0.2 μM)): 9.3 ± 1.5 nM
- IC50 ([2]; read-out: IC50 of each drug in combination VOA (3.0 μM) QHS (0.1 μM)): 5.7 ± 1.2 nM

Molecule: Ervahanine
- IC50 ([2]; read-out: IC50 (10^−7 M) R): 880 nM

Molecule: Decarbomethoxyvoacamine [DCV]
- IC50 ([2]; read-out: IC50 (10^−7 M) R): 820 nM

Molecule: Tabernamine
- IC50 ([2]; read-out: IC50 (10^−7 M) R): 950 nM

Molecule: Voacamidine [VDN]
- IC50 ([2]; read-out: IC50 (10^−7 M) R): 980 nM
